Strings that start with PEPTIDE1 are HELM notation: dots part the residues, brackets hold end groups and non-standard residues.
Test: peptide synthesis
Conditions: whole synthesis, analytical HPLC

With “PEPTIDE1{Y.V.I.D.D.L}$PEPTIDE1,PEPTIDE1,1:R1-4:R3$$$V2.0” the “final HPLC purity” value was “at least 95% homogeneous”.
